Anti-infective test results gathered from many reports (values: NIAID ChemDB through PubChem).

All rows: growth or infection tests; species: HIV-1; endpoint: fold resistance

Fold resistance: result on the changed form divided by that on wild type. Conditions beyond the fields shown may differ between rows. Blank or dashed fields: not listed here.

| compound | changes | cells | strain or isolate | read by | result |
|---|---|---|---|---|---|
| CCN1c2ncc(CCOc3ccc(C(=O)Nc4ccc(CC(=O)O)cc4)cc3C)cc2C(=O)Nc2c(C)ccnc21 | RT-K103N Y181C | C8166 |  | p24 | >1 |
| Cc1sccc1C(=S)Nc1ccc(Cl)c(C(=O)OC2CCCCC2)c1 | RT-K103N | CEM |  | syncytia | 67.9 |
| C[C@@H]1CCO[C@H]2Cn3cc(C(=O)NCc4ccc(F)cc4F)c(=O)c(O)c3C(=O)N12 | V72I/L74F/V75I | TZM-bl |  | luciferase / luminescence | 0.5 |
| Nc1nc(=O)n([C@H]2C=C[C@@H](CO)O2)cc1F | RT-A62V V75I F77C F116Y Q151M | MT-4 | XM-Q151M | p24 | 23 |
| CCN1c2ncc(CCOc3ccc(C(C)CC(=O)O)c4ccccc34)cc2C(=O)N(C)c2cccnc21 | RT-K103N Y181C | C8166 |  | p24 | 1 |
| COc1cc2c(cc1Cc1cccc(Cl)c1F)c(=O)c(C(=O)O)cn2[C@H](CO)C(C)C | T97A E138K G140S Q148H | CEM-GXR | NL4-3 | GFP | >1000 |
| CCCc1cc(=O)oc2c3c(c4c(c12)OC(C)(C)CC4)O[C@H](C)[C@@H](C)C3=O | RT-K103N |  |  | cytopathic effect / XTT | 21 |
| CCCCCCCCCCCCCCCCOCCCOP(=O)(O)CO[C@H](CO)Cn1cnc2c(N)ncnc21 | RT-K65R | MT-2 |  | p24 | 22.8 |
| CCN1c2ncc(CCOc3ccc(Nc4cccc(CC(=O)O)c4)cc3C)cc2C(=O)N(C)c2cccnc21 | RT-K103N Y181C | C8166 |  | p24 | 1 |
| CCN1C(=O)c2c(O)c(=O)c(C(=O)NCc3ccc(F)cc3F)cn2[C@H]2CCOC[C@H]21 | N155H/Q148R | MT-2 |  | luminescence | 1.8 |
| CCN1c2ncc(CCOc3ccc(C(=O)Nc4ccc(CC(=O)O)cc4)cc3C)cc2C(=O)N(C)c2cccnc21 | RT-K103N Y181C | C8166 |  | p24 | >1 |
| CCCCCCCCCCCCCCCCCCOCCOP(=O)(O)CO[C@H](CO)Cn1cnc2c(N)ncnc21 | RT-M184V | MT-2 |  | p24 | 0.0925 |
| C/C=C/CSc1cc(NC(=S)c2ccsc2C)ccc1Cl | RT-K103N | CEM |  | syncytia | 12.9 |
| CCc1c(Sc2cc(C)cc(C)c2)n(COCc2ccccc2)c(=O)[nH]c1=O | RT-Y188H | CEM | IIIB | syncytia | 630 |
| CCOCn1c(Cc2ccccc2)c(C#N)c(=O)[nH]c1=O | RT-Y181C |  |  |  | >10 |
| CCN1C(=O)c2c(O)c(=O)c(C(=O)NCc3c(F)cc(F)cc3F)cn2[C@H]2COC[C@H]21 | E138K/Q148K | MT-2 |  | luminescence | 23.8 |
| CCc1ccc(-n2c(C)nnc2SCC(=O)Nc2ccc(C)cc2Cl)c2ccccc12 | RT-K103N Y181C | HeLa + HeLa-JC53 | NL4-3 | luciferase | 32 |
| CNc1nc2ccc(S(=O)(=O)N(CC(C)C)C[C@@H](O)[C@H](Cc3ccccc3)NC(=O)O[C@H]3CCOC3)cc2o1 | PR-L010F M046I M071V I084V | MT-4 | LAI | cytopathic effect / MTT | 115 |
| Cc1cc(C)cc(Cc2c(C(C)C)c(=O)[nH]c(=O)n2COCCO)c1 | RT-L100I | CEM | IIIB (TIBO 82150) (RT-L100I) | syncytia | 4.71 |
| CCN1c2ncc(CCOc3ccc(-c4cnc[nH]4)cc3C)cc2C(=O)N(C)c2cccnc21 | RT-K103N Y181C | C8166 |  | p24 | 1 |
| O=C(NCc1c(F)cc(F)cc1F)c1cn2c(c(O)c1=O)C(=O)N1[C@H]3CC[C@H](C3)O[C@@H]1C2 | T97A E138K G140S Q148H | CEM-GXR | NL4-3 | GFP | 8.2 |
| CCOCn1c(Cc2cc(C)cc(C)c2)c(CC)c(=O)[nH]c1=O | RT-L100I | CEM | IIIB (TIBO 82150) (RT-L100I) | syncytia | 8 |
| Cc1occc1C(=S)Nc1ccc(Cl)c(C(=O)OCC2CC2)c1 | RT-T139I | CEM + CEM-SS | CALO(RT-T139I) | cytopathic effect / XTT | 2 |
| CCCCCCCCCCCCCCCCCCOC[C@H](COP(=O)(O)C(=O)O)OCC | RT-K65R | MT-2 | LAI | p24 | 3.18 |
| CC(C)=CCOc1cc(NC(=S)c2ccoc2C)ccc1Cl | RT-Y188L | CEM | IIIB | syncytia | 16.7 |
| COc1ccccc1C(=S)Nc1ccc(Cl)c(C(=O)OC(C)C)c1 | RT-V106A | CEM |  | syncytia | 46 |
| Cc1ccc(-n2c(C)nnc2SCC(=O)Nc2ccc(Oc3ccccc3)cc2)cc1 | RT-K103N Y181C | HeLa + HeLa-JC53 | NL4-3 | luciferase | >9.1 |
| Cc1ccsc1C(=S)Nc1ccc(Cl)c(/C=N/OC(C)(C)C)c1 | RT-L100I | CEM |  | syncytia | 20 |
| CCOCn1c(Cc2ccccc2)c(C(C)C)c(=O)[nH]c1=O | RT-Y181C |  |  |  | >20000 |
| Cc1occc1C(=S)Nc1ccc(Cl)c(C(=O)OC(C)C)c1 | RT-D67N K70R Y181C T215Y K219Q | CEM + CEM-SS | 4XAZT/Y181C (RT D67N K70R Y181C T215Y K219Q) | cytopathic effect / XTT | 13.3 |
| CC(C)CN(C[C@@H](O)[C@H](Cc1ccccc1)NC(=O)O[C@H]1CCOC1)S(=O)(=O)c1ccc2nc(N)oc2c1 | PR-L010F M046I M071V I084V | MT-4 | LAI | cytopathic effect / MTT | 21 |
| O=C(COc1ccc(Cl)cc1C(=O)c1ccccc1)Nc1ccc(-n2cncn2)cc1 | RT-K103N | HeLa + HELA CD4+ | HXB2 | β-galactosidase | ~1 |
| CCN1c2ncc(CCOc3ccc(-c4ccc(N)c(C(=O)O)c4)cc3C)cc2C(=O)N(C)c2cccnc21 | RT-K103N Y181C | C8166 |  | p24 | 1 |
| CC1=C(C(=S)Nc2ccc(Cl)c(C=NOC(C)(C)C)c2)CCCO1 | RT-K103N | CEM |  | syncytia | 6.17 |
| CCc1c(Cc2cc(Cl)cc(Cl)c2)n(COC/C=C/c2ccccc2)c(=O)[nH]c1=O | RT-Y181C | MT-4 | NNRTI-resistant (RT Y181C) N119 | cytopathic effect / MTT | 75 |
| Cc1cc(C)cc(S(=O)(=O)c2c(C(=O)/C=C/C(N)=O)[nH]c3ccc(Cl)cc23)c1 | RT-Y181C | C8166 | IIIB | p24 | 10 |
| Cc1ccc(-n2c(C)nnc2SCC(=O)Nc2ccc(C)cc2Cl)cc1 | RT-K103N Y181C | HeLa + HeLa-JC53 | NL4-3 | luciferase | 189 |
| C=CCOCn1c(Cc2cc(Cl)cc(Cl)c2)c(CC)c(=O)[nH]c1=O | RT-Y181C | MT-4 | NNRTI-resistant (RT Y181C) N119 | cytopathic effect / MTT | >333 |
| Cc1sccc1C(=S)Nc1ccc(Cl)c(OCCC(C)C)c1 | RT-V106A | CEM |  | syncytia | 8.45 |
| CCN1c2ncc(CCOc3ccc(CCC(=O)O)c4c3CCCC4)cc2C(=O)N(C)c2ccc(Cl)nc21 | RT-K103N Y181C | C8166 |  | p24 | 1 |
| Cc1ccccc1C(=S)Nc1ccc(Cl)c(C(=O)OC(C)C)c1 | RT-E138K | CEM |  | syncytia | 3.7 |
| C=C1c2cc(CCOc3ccc(NS(C)(=O)=O)c4ccccc34)cnc2N(CC)c2ncccc2N1C | RT-K103N Y181C | C8166 |  | p24 | 1 |
| Cc1nnc(SCC(=O)Nc2ccc(S(N)(=O)=O)cc2Cl)n1-c1ccc(N(C)C)c2ccccc12 | RT-Y188L | HeLa + HeLa-JC53 | NL4-3 | luciferase | 176 |
| Cc1cc(N)c(N)c(C)c1OCC(=O)N[C@@H](Cc1ccccc1)[C@H](O)CN(CC(C)C)S(=O)(=O)c1ccc2nc(N)oc2c1 | PR-L010F M046I M071V I084V | MT-4 | LAI | cytopathic effect / MTT | 8.9 |
| CC(C)=CCOc1cc(NC(=S)c2ccsc2C)ccc1Cl | RT-L100I | CEM |  | syncytia | 1.89 |
| Cc1cccc(Sc2c(C)c[nH]c(=O)c2N)c1 | RT-Y181C | CEM + CEM-SS | N119(RT-Y181C) | cytopathic effect / MTT | >1490 |
| C/C=C/COc1cc(NC(=S)c2ccoc2C)ccc1Cl | RT-V106A | CEM |  | syncytia | 85 |
| CCC(=O)c1ccc(F)c([C@@H]2C[C@@H]2NC(=O)Nc2ccc(C#N)cn2)c1O | NNRTI-resistant (RT F227C) | TZM-bl | LAI | β-galactosidase / luminescence | 14.8 |
| C=C(C)COCn1c(Cc2cc(Cl)cc(Cl)c2)c(CC)c(=O)[nH]c1=O | RT-Y181C | MT-4 | NNRTI-resistant (RT Y181C) N119 | cytopathic effect / MTT | >83 |
| Cc1c(C(=O)N[C@@H](Cc2ccccc2)[C@H](O)CN(CC(C)C)S(=O)(=O)c2ccc3nc(N)oc3c2)ccc2c1OCO2 | PR-L010F M046I M071V I084V | MT-4 | LAI | cytopathic effect / MTT | 214 |
| Cc1occc1C(=S)Nc1ccc(Cl)c(C(=O)OCC(F)(F)F)c1 | RT-T139I | CEM + CEM-SS | CALO(RT-T139I) | cytopathic effect / XTT | 1.8 |
| C/C=C/CSc1cc(NC(=S)c2ccoc2C)ccc1Cl | RT-K103N | CEM |  | syncytia | 20 |
| C=CCO/N=C/c1cc(NC(=S)c2ccoc2C)ccc1Cl | RT-V106A | CEM + CEM-SS | NL4-3 | cytopathic effect / XTT | 114 |
| Cc1occc1C(=S)Nc1ccc(Cl)c(/C=N/OC(C)(C)C)c1 | RT-E138K | CEM | IIIB | syncytia | 2 |
| C/C=C/COc1cc(NC(=S)c2ccn(C)c2C)ccc1Cl | RT-E138K | CEM |  | syncytia | 25.9 |
| CC(C)=CCOc1cc(NC(=S)c2ccoc2C)ccc1Cl | RT-K103N | CEM | IIIB | syncytia | 8 |
| CCN1c2ncc(CCOc3ccc(C(=O)O)c4c3CCN(S(=O)(=O)N(C)C)C4)cc2C(=O)N(C)c2cccnc21 | RT-K103N Y181C | C8166 |  | p24 | 1 |
| CCOCn1c(Cc2ccccc2)c(C(C)C)c(=O)[nH]c1=O | RT-Y181C | MT-4 | NNRTI-resistant (RT Y181C) N119 | cytopathic effect / MTT | 2200 |
| CCN1c2ncc(CCOc3ccc(NC(=O)c4ccc(C(=O)O)cc4)cc3C)cc2C(=O)N(C)c2cccnc21 | RT-K103N Y181C | C8166 |  | p24 | >1 |
| CO/N=C/c1cc(NC(=S)c2ccoc2C)ccc1OC | RT-V106A | CEM |  | syncytia | 20 |
| Cc1cc(C#N)cc(C(=O)c2ccccc2OCC(=O)Nc2ccc(S(N)(=O)=O)cc2C)c1 | RT-K103N P225H | HeLa MAGI + HeLa |  | β-galactosidase | 10 |
| CCOCn1c(Cc2ccccc2)c(CO)c(=O)[nH]c1=O | RT-Y181C |  |  |  | >4.55 |
| CC(C)OC(=O)c1cc(NC(=S)c2ccccc2N)ccc1Cl | RT-E138K | CEM |  | syncytia | 44 |
| Cc1occc1C(=S)Nc1ccc(Cl)c(/C=N/OC(C)(C)C)c1 | RT-V106A | CEM + CEM-SS | NL4-3 | cytopathic effect / XTT | 33.75 |
| Cc1occc1C(=S)Nc1ccc(Cl)c(OCCC(C)C)c1 | RT-V106A | CEM |  | syncytia | 13.9 |
| Cc1cc2cn[nH]c2cc1NC(=O)COc1ccc(Cl)cc1C(=O)c1cccc(C#N)c1 | RT-Y181C | MT-4 | Nevirapine-resistant (RT Y181C) | cytopathic effect / propidium iodide | ~1 |
| Cn1cccc1C(=S)Nc1ccc(Cl)c(/C=N/OC(C)(C)C)c1 | RT-V106A | CEM |  | syncytia | 3.46 |
| Cc1occc1C(=O)Nc1ccc(Cl)c(/C=N/N(C)C)c1 | RT-K103N | CEM | R82913-resistant (RT K103N) | syncytia | <8.89 |
| Cc1cc(C)cc(Sc2c(C(C)C)c(=O)[nH]c(=S)n2COCCO)c1 | RT-K103N | CEM | IIIB TIBO R82913-resistant (RT K103N) | syncytia | 100 |
| CCN1C(=O)c2c(O)c(=O)c(C(=O)NCc3ccc(F)c(Cl)c3F)cn2[C@H]2CCOC[C@H]21 | G140S/Q148R | MT-2 |  | luminescence | 1.8 |
| Cc1cc(S(N)(=O)=O)ccc1NC(=O)COc1ccc(Cl)cc1C(=O)c1cc(F)cc(C(F)(F)F)c1 | RT-G190A | HeLa + HELA CD4+ | HXB2 | β-galactosidase | ~1 |
| CCc1c(C)[nH]c(=O)c(N)c1Sc1cc(C)cc(C)c1 | RT-Y181C | CEM + CEM-SS | N119(RT-Y181C) | cytopathic effect / MTT | 26.4 |
| CC(C)OC(=O)c1cc(NC(=S)c2ccsc2)ccc1Cl | RT-Y181C | CEM |  | syncytia | 16.9 |
| C#CCOCn1c(Cc2cc(Cl)cc(Cl)c2)c(CC)c(=O)[nH]c1=O | RT-Y181C | MT-4 | NNRTI-resistant (RT Y181C) N119 | cytopathic effect / MTT | 600 |
| Cc1ccsc1C(=S)Nc1ccc(Cl)c(C(=O)OC2CCCCC2)c1 | RT-E138K | CEM |  | syncytia | 4.44 |
| CC=CCOc1cc(NC(=S)c2ccoc2C)ccc1OC | RT-L74V | CEM + CEM-SS | NL4-3 | cytopathic effect / XTT | 1 |
| O=C(Nc1ccc(Cl)c(C(=O)OC2CCCCC2)c1)c1ccccc1F | RT-V106A | CEM |  | syncytia | 3.31 |
| Cc1cc(-n2c(C)nnc2SCC(=O)Nc2ccccc2Br)c2ccccc2c1C | RT-K103N Y181C | HeLa + HeLa-JC53 | NL4-3 | luciferase | 62 |
| Cc1cc(S(N)(=O)=O)ccc1NC(=O)COc1ccc(Cl)cc1C(=O)c1cccc(C#N)c1 | RT-K103N G190A | HeLa + HELA CD4+ | HXB2 (RT-K103N G190A) Recombinant | β-galactosidase | ~10 |
| Cc1occc1C(=S)Nc1ccc(Cl)c(C(=O)OC(C)C)c1 | RT-V106A | CEM |  | syncytia | 85 |

5 of the rows above, restated:

compound,changes,cells,strain or isolate,read by,result
Cc1cc(C#N)cc(C(=O)c2ccccc2OCC(=O)Nc2ccc(S(N)(=O)=O)cc2C)c1,RT-K103N P225H,HeLa MAGI + HeLa,,β-galactosidase,10
C=CCO/N=C/c1cc(NC(=S)c2ccoc2C)ccc1Cl,RT-V106A,CEM + CEM-SS,NL4-3,cytopathic effect / XTT,114
C=C1c2cc(CCOc3ccc(NS(C)(=O)=O)c4ccccc34)cnc2N(CC)c2ncccc2N1C,RT-K103N Y181C,C8166,,p24,1
CCc1c(Sc2cc(C)cc(C)c2)n(COCc2ccccc2)c(=O)[nH]c1=O,RT-Y188H,CEM,IIIB,syncytia,630
CC(C)CN(C[C@@H](O)[C@H](Cc1ccccc1)NC(=O)O[C@H]1CCOC1)S(=O)(=O)c1ccc2nc(N)oc2c1,PR-L010F M046I M071V I084V,MT-4,LAI,cytopathic effect / MTT,21